Assay results published in publication PMC3040979.

System: CCCCCCCC(=O)O
Test: purified protein
Conditions: pH 7.5; 30.0 °C

Work on “LpFAAL (Legionella pneumophila subsp. pneumophila str. Philadelphia 1)” yielded a Km of 811 ± 111 µM.
